Measured values from the supplement of paper PMC9931576.
Human monoclonal antibodies against the spike receptor-binding domain (heavy:light variable regions). IC50 against pseudoviruses bearing the spike of naturally observed variants; lower = stronger; >10 µg/ml means not reached at the top dose. No active / inactive call. The stated detection limit is 0.0005 µg/ml; values near or below 0.001 µg/ml lie at the floor of the assay.

B1: BD58-0515 (protein)
chain 1: EVQLVQSGAEVKKPGESLKISCKGSGFSFTSYWIAWVRQTPGKGLEWMGIIYPDDSDTIYSPPFQGRVTISADKSITTAYLQWSSLEVSDTAMYYCARGMVRDAFDLWGQGTMVTVSS
chain 2: DIQMTQSPSSLSASVGDRVTITCRASQGVSTSLAWYQQKPGTAPKLLLYGASRMESGVPSRFSGSGSGTHFTLTISSLQPEDFATYYCQQYYSTLVTFGGGTKVEIK
B2: BD58-0519 (protein)
chain 1: EVQLVESGGGVVQPGGSLRLSCAASGFTFDDYAMHWVRQAPGKGLEWVSLIGGDGGSTYYADSVKGRFTISRDNSRNSLYLQMNSLRSEDTALYYCAKGGHKWELLIAYYYGMDVWGQGTTVTVSS
chain 2: QSALTQPASVSGSPGQSITVSCTGTSSDVGGYNYVSWYQQHPDKAPKLIVYDVSLRPSGVSNRFSGSKSGNTASLTISGLQAEDEADYYCSSYTSSNTPLVFGGGTKLTVL
B3: BD58-0525 (protein)
chain 1: QVQLVESGGGVVQPGRSLRLSCAASGFIFSNYGMHWVRQAPGKGLEWVAVIWYDTSNKYYADSVKGRFTISRDNSKNTLYLQMNSLRAEDTAVYYCAKDIAAYCAGECHGALSWGQGTLVTVSS
chain 2: SYVLTQPPSVSVAPGQTARITCGGKNIGRKSVHWYQQKSGQAPVLVVFDDSDRPSGIPERFSGSNSGNTATLTISRVEAGDEADYYCQVWDTSSDLPGVFGGGTKLTVL
B4: BD58-0531 (protein)
chain 1: EVQLVESGGGLVKPGGSLRLSCAASGFTFSNAWMSWVRQAPGKGLEWVGRIKRKSDGGTTDYAAPVKGRFTISRDESKNTLYLQMNSLKTEDTAIYYCTTDRGIQLWIYGMDVWGQGTTVTVSS
chain 2: SYELTQPPSVSVSPGQTARITCSGDALPIQYAYWYQQKPGQAPVLVIYKDSERPSGIPERISGSSSGTTVTLTISGVQAEDEADYYCQSADSSGSYVVFGGGTKLTVL
B5: BD58-0533 (protein)
chain 1: EVQLVQSGAEVKKPGESLKVSCKGSGYNFTRYWIGWVRQMPGKGLEWMGIIYPGNSDTTYSPSFQGQVTISADKSISTAYLQWSSLKASDSAMYYCARHGALDPTDYYYGMDVWAQGTTVTVSS
chain 2: DIQMTQSPSSLSASVGDRVTITCRASHGISNYLNWYQQKPGKAPKLLIYAASSLQSGVPSRFSGGGSGTDFTLTISSLQPEDFATYYCQQSYSTLFTFGPGTKVDIK

Biological target: SARS-CoV-2 Omicron BA.1 spike pseudovirus
Experiment: pseudovirus neutralization IC50; higher = weaker neutralization
Protocol: (§1)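 Single-round VSV luciferase pseudovirus mixed with antibody dilutions for 1 h and put on Huh-7 cells for about a day; IC50 from the dose curve.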

Binder | pseudovirus neutralization IC50 [µg/mL]
B1 | 0.000436
B2 | 0.549
B3 | > 10
B4 | 0.00762
B5 | > 10

Biological target: SARS-CoV-2 Omicron BA.2 spike pseudovirus
Experiment: as above
Protocol: as §1

Binder | pseudovirus neutralization IC50 [µg/mL]
B1 | 0.000926
B2 | 0.00185
B3 | 1.72
B4 | 0.323
B5 | 0.00219

Biological target: SARS-CoV-2 Omicron BA.2.75 spike pseudovirus
Experiment: as above
Protocol: as §1

Binder | pseudovirus neutralization IC50 [µg/mL]
B1 | 0.00413
B2 | 0.191
B3 | > 10
B4 | 0.0863
B5 | 0.145

Biological target: SARS-CoV-2 Omicron BA.2.75.2 spike pseudovirus
Experiment: as above
Protocol: as §1

Binder | pseudovirus neutralization IC50 [µg/mL]
B1 | 0.0189
B2 | 0.327
B3 | > 10
B4 | 0.108
B5 | 0.141

Biological target: SARS-CoV-2 Omicron BA.5 spike pseudovirus
Experiment: as above
Protocol: as §1

Binder | pseudovirus neutralization IC50 [µg/mL]
B1 | 0.000829
B2 | > 10
B3 | 0.395
B4 | 0.0902
B5 | 0.00347

Biological target: SARS-CoV-2 Omicron BM.1.1.1 spike pseudovirus
Experiment: as above
Protocol: as §1

Binder | pseudovirus neutralization IC50 [µg/mL]
B1 | 0.0277
B2 | > 10
B3 | > 10
B4 | 0.0585
B5 | 0.148

Biological target: SARS-CoV-2 Omicron BQ.1.1 spike pseudovirus
Experiment: as above
Protocol: as §1

Binder | pseudovirus neutralization IC50 [µg/mL]
B1 | > 10
B2 | > 10
B3 | > 10
B4 | 0.264
B5 | 0.00827

Biological target: SARS-CoV-2 Omicron BR.2 spike pseudovirus
Experiment: as above
Protocol: as §1

Binder | pseudovirus neutralization IC50 [µg/mL]
B1 | 0.0287
B2 | > 10
B3 | > 10
B4 | 0.0448
B5 | 0.163

Biological target: SARS-CoV-2 Omicron CA.1 spike pseudovirus
Experiment: as above
Protocol: as §1

Binder | pseudovirus neutralization IC50 [µg/mL]
B1 | 0.089
B2 | > 10
B3 | > 10
B4 | 0.0329
B5 | 0.187

Biological target: SARS-CoV-2 Omicron XBB spike pseudovirus
Experiment: as above
Protocol: as §1

Binder | pseudovirus neutralization IC50 [µg/mL]
B1 | > 10
B2 | > 10
B3 | > 10
B4 | 0.0797
B5 | > 10

Biological target: SARS-CoV-2 early D614G spike pseudovirus
Experiment: as above
Protocol: as §1

Binder | pseudovirus neutralization IC50 [µg/mL]
B1 | > 10
B2 | > 10
B3 | > 10
B4 | > 10
B5 | > 10
